From PMC5101508, “Molecular basis for epitope recognition by non-neutralizing anti-gp41 antibody F240” (Scientific Reports, 2016) come the findings set out here.

Test [1] has as its target HIV-1 BaL envelope glycoprotein (Env, gp120/gp41) on AT-2-inactivated virions (HIV-1 clade B, BaL (env clone of the …, UniProt Q78225, strain)). Kind of test: flow cytometry on cells. Particulars: one partner purified. In general terms: Flow cytometry measures light scatter and fluorescence of single cells or particles in a stream.
In test [2] the target is HIV-1 envelope glycoprotein (gp120/gp41) (HIV-1 clade B, BaL (infectious …, UniProt Q78225, strain)). Kind of test: flow cytometry on cells; EGFP-CEM-NKr-CCR5-SNAP cells 5 days after infection with IMC BaL; Alexa Fluor-647 labelled mAbs; gate p24+low/CD4+. The following applies: one partner purified.

B1: monoclonal antibody N5-i5 (antibody, V domains shown)
VH: EVQLVESGGGLVQPGGSLRLSCAASGFTFSTYAMSWVRQAPGKGLEWVSSINNSGRNTFSADSVKGRFTISRDNSKNTLFLVMNSLRAEDTAVYYCAKDLRLGGGSDYWGQGTLVTVSS
VL: QSALTQPASVSGSPGQSITISCTGTSSDVGSYNFVSWYQQHPGKAPKLMIYEVSERPSGISNRFSGSKSGNTASLTISGLQAEDEADYYCSSYAGSTTFRVFGGGTKLTVR
As for B1, the binding result in test [1] and in test [2] was “binds” throughout.
